Measured values: publication PMC7594338

Experiments:
[1] = tested on: Rsp (AraC-type regulator) (Staphylococcus aureus); experiment: EMSA; conditions: 1.5 ug Rsp, 8 fmol DNA, shift unchanged by 200-fold excess salmon sperm DNA; LightShift chemiluminescent EMSA kit; 8 fmol biotinylated DNA, 1.5 ug Rsp (65-365 ug/ml tested), 20 min at room temperature, 5% nondenaturing PAGE; recombinant protein; protein details: His tag (pQE-9); label: 5' biotin (forward primer); probe letters rebuilt from the primers and the genome
[2] = tested on: Rsp (AraC-type regulator) (Staphylococcus aureus); experiment: competition with a labelled probe; conditions: 200-fold excess unlabeled, LightShift chemiluminescent EMSA kit, 8 fmol biotinylated DNA, 1.5 ug Rsp (65-365 ug/ml tested), 20 min at room temperature, 5% nondenaturing PAGE, recombinant protein, protein details: His tag (pQE-9), probe letters rebuilt from the primers and the genome

Sequence | binding result [1] | also measured
ACTTAGTAATCGGTTGTTGTATCAACATGCAACCGTAAACCTTATTTAAAGTTGCTTCTTGTGGCTCTACAAGCGAATGCAGTTGTCCGTTAACTACATTCACTTAGATGCTTTTACTGTTTTCACCTCAACTAAAACTTCAAAAAAGTTGCAGAAAACAAATCGTAACTATTACGATTTGATTATATACTATATTAGTTGAGAATCATTGTCAATAAAGGTTGTAAATGAATGCACATTTATATTTTGATAATCCTTCCATAAACATCGTATTCTCAGCACATTCAAGTCTTTTTGAAAATTTTTATCAATAATTGAATAGAAGTTCCGTTCTCGTCAGTTCAAAATTTTACGTAAGTTGTCTCTGCGTATTGCTTTAGTGAGAATAACCCACACTTGTGGAAACGTCCTTTTGTTAATCTACAATGGATCCCCTTGTCTTTCGCTAACATTTCCTATCACCAATCCTGTAACGAATTTTCATCGTCAAGTTG (double strand) [cntK promoter fragment (494 bp)] | binds | 
ACTTAGTAATCGGTTGTTGTATCAACATGCAACCGTAAACCTTATTTAAAGTTGCTTCTTGTGGCTCTACAAGCGAATGCAGTTGTCCGTTAACTACATTCACTTAGATGCTTTTACTGTTTTCACCTCAACTAAAACTTCAAAAAAGTTGCAGAAAACAAATCGTAACTATTACGATTTGATTATATACTATATTAGTTGAGAATCATTGTCAATAAAGGTTGTAAATGAATGCACATTTATATTTTGATAATCCTTCCATAAACATCGTATTCTCAGCACATTCAAGTCTTTTTGAAAATTTTTATCAATAATTGAATAGAAGTTCCGTTCTCGTCAGTTCAAAATTTTACGTAAGTTGTCTCTGCGTATTGCTTTAGTGAGAATAACCCACACTTGTGGAAACGTCCTTTTGTTAATCTACAATGGATCCCCTTGTCTTTCGCTAACATTTCCTATCACCAATCCTGTAACGAATTTTCATCGTCAAGTTG (double strand) [cntK promoter fragment, unlabeled competitor] |  | binding result ([2]; reduces shift of biotinylated cntK probe): binds
GATTGATCAGTTCCTAACTCGCTATGAAGCAAGTTGCCAGGCGTACAAGGATATGCATCAAGATCAACACTTATCTTCTCAATTTAATACAAATCTATTTGAAGGAGATAAAGCACTCGTCACAAAATTTTTGGAAATCAATAGAACGCTTTCATAATAAGGGTTTGAAGTTTTATAATAGAAAAAAATTATTGAATTATGTTTGACATTTACATAAAAATAAGCAAATAATTGAGAAAAATAATCATTACGATTTGATTAAGTAATGCAACTTATCAATTTAGAAAGAGGAAAAGCAAATGAGAAAACTAACTAAAATGAGTGCAATGTTACTTGCATCAGGGCTAATTTTAACTGGTTGTGGCGGTAATAAAGGTTTAG (double strand) [cntA promoter fragment, unlabeled competitor] |  | binding result ([2]; reduces shift of biotinylated cntA probe): binds
GATTGATCAGTTCCTAACTCGCTATGAAGCAAGTTGCCAGGCGTACAAGGATATGCATCAAGATCAACACTTATCTTCTCAATTTAATACAAATCTATTTGAAGGAGATAAAGCACTCGTCACAAAATTTTTGGAAATCAATAGAACGCTTTCATAATAAGGGTTTGAAGTTTTATAATAGAAAAAAATTATTGAATTATGTTTGACATTTACATAAAAATAAGCAAATAATTGAGAAAAATAATCATTACGATTTGATTAAGTAATGCAACTTATCAATTTAGAAAGAGGAAAAGCAAATGAGAAAACTAACTAAAATGAGTGCAATGTTACTTGCATCAGGGCTAATTTTAACTGGTTGTGGCGGTAATAAAGGTTTAG (double strand) [cntA promoter fragment (381 bp)] | binds | 

The exact form of at least one protein or probe is not confirmed.
